Compound potency records, mixed from different reports. Data source: NIAID ChemDB in PubChem.

Shared fields: growth or infection tests; species: Rhinovirus; measure: EC50

ECn: concentration that inhibits the pathogen or its effect by n%. Lines come from different laboratories, so protocols vary.

smiles	cell line	read by	strain or isolate	result
CCOC(=O)c1ccc(OCCOc2ccc(-c3snc(SC)c3C#N)cc2)cc1	HELA-OHIO	cytopathic effect	Serotype 72 (group A)	>2 µM
CCOC(=O)c1ccc(OCCC2CCN(c3ccc(C)nn3)CC2)cc1	KB	neutral red	6669-CV39 (ICAM-1 receptor group 61)	2.846 µM
CSc1nsc(-c2ccc(OCCOc3ccc(C#N)cc3)cc2)c1C#N	HELA-OHIO	cytopathic effect	Serotype 42 (group A)	>2 µM
CSc1nsc(-c2ccccc2)c1C#N	HELA-OHIO	cytopathic effect	Serotype 59 (group B)	>80 µM
CSc1nsc(-c2ccc(OCCCOc3ccc(C#N)cc3)cc2)c1C#N	HELA-OHIO	cytopathic effect	Serotype 45 (group A)	>2 µM
Cc1cc(CCCCCOc2c(Cl)cc(C3=NCCO3)cc2Cl)on1	HeLa	plaque count	TYPE 39	0.1 µg/mL
Cc1ccc(Cn2cnc3c(Nc4cccc(F)c4)nc(C(F)(F)F)nc32)cc1	M-HELA	plaque count	Serotype 4	180 µM
CN(C)c1nc(C(F)(F)F)nc2c1ncn2Cc1ccc(Cl)cc1Cl	M-HELA	plaque count	Serotype 1B	0.13 µM
CCOC(=O)/C=C/[C@H](C[C@@H]1CCNC1=O)NC(=O)[C@@H](CC(=O)[C@@H](NC(=O)c1cc(C)on1)C(C)C)Cc1ccc(F)cc1	OHIO HELA-I	cytopathic effect / visual reading	Isolate 41	0.02 µg/mL
CN(C)c1nc(C(F)(F)F)nc2c1ncn2Cc1ccc(Cl)c(Cl)c1	M-HELA	plaque count	TYPE 1B	0.12 µM
CSc1nsc(-c2ccc(OCc3ccccc3)cc2)c1C#N	HELA-OHIO	cytopathic effect	Serotype 15 (group B)	3 µM
Cc1cc(Cn2cnc3c(N(C)C)nc(C(F)(F)F)nc32)ccc1Cl	M-HELA	plaque count	Serotype 18	>8 µM
CSc1nsc(-c2ccc(OCCc3ccccc3)cc2)c1C#N	HELA-OHIO	cytopathic effect	Serotype 59 (group B)	>20 µM
Fc1cccc(Cn2cnc3c(Nc4cccc(F)c4)nc(C(F)(F)F)nc32)c1	M-HELA	plaque count	Serotype 10	3.3 µM
Cc1ccccc1Cn1cnc2c(N(C)C)nc(C(F)(F)F)nc21	M-HELA	plaque count	Serotype 15	>8 µM
CSc1nsc(-c2ccc(OCCCCOc3ccc(C#N)cc3)cc2)c1C#N	HELA-OHIO	cytopathic effect	Serotype 63 (group B)	>2 µM
CN(C)c1nc(C(F)(F)F)nc2c1ncn2Cc1ccccc1	M-HELA	plaque count	Serotype 21	>8 µM
CCOC(=O)c1ccc(OCCCOc2ccc(-c3snc(SC)c3C#N)cc2)cc1	HELA-OHIO	cytopathic effect	Serotype 51 (group B)	>2 µM
Cc1ccc(Cn2cnc3c(N(C)C)nc(C(F)(F)F)nc32)cc1C	M-HELA	plaque count	Serotype 5	>8 µM
CSc1nsc(-c2ccc(O)cc2)c1C#N	HELA-OHIO	cytopathic effect	Serotype 2 (group B)	>10 µM

A second listing of 3 rows from above:

smiles	cell line	read by	strain or isolate	result
CCOC(=O)c1ccc(OCCCOc2ccc(-c3snc(SC)c3C#N)cc2)cc1	HELA-OHIO	cytopathic effect	Serotype 51 (group B)	>2 µM
Cc1cc(Cn2cnc3c(N(C)C)nc(C(F)(F)F)nc32)ccc1Cl	M-HELA	plaque count	Serotype 18	>8 µM
CCOC(=O)c1ccc(OCCOc2ccc(-c3snc(SC)c3C#N)cc2)cc1	HELA-OHIO	cytopathic effect	Serotype 72 (group A)	>2 µM